Laboratory results: PubChem BioAssay AID624099 (ICCB-Longwood, 2012)
Test: 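Human genes that papillomavirus E2 requires to repress the HPV18 LCR promoter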 (primary screen). System: human C33A cervical carcinoma cells (HPV-negative) stably expressing BPV1 E2 and an HPV18 LCR luciferase reporter. Reagents: siRNA pool against human genes, 40 nM. Duration: 72 h. Detection: 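HPV18 LCR reporter light per well, converted to plate-wise z-scores that exclude control wells, and averaged over triplicate plates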. Scale: mean z-score and z-score: higher = stronger reporter signal, weaker E2 silencing. Call rule: 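Hit if mean z-score reaches 2 and two or more of three replicate z-scores also reach 2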.
Shown is an unselected part of about 21,000 deposited reagents. 497 of all reagents (2.4%) were called active. 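Higher z means weaker E2 silencing; only reporter increases were scored, and knock-downs that hurt cell survival may mask genuine repressor factors.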 No sequences are given here.

MOB3A (MOB kinase activator 3A)
- mean z-score: -0.52
- z-score, replicate A: -0.35
- z-score, replicate B: -0.9
- z-score, replicate C: -0.31
- call: inactive

IGLL1 (immunoglobulin lambda like polypeptide 1)
- mean z-score: -0.34
- z-score, replicate A: -0.3
- z-score, replicate B: -0.37
- z-score, replicate C: -0.35
- call: inactive

SETD3
- mean z-score: -0.26
- z-score, replicate A: -0.32
- z-score, replicate B: -0.24
- z-score, replicate C: -0.22
- call: inactive

AP1S2 (adaptor related protein complex 1 subunit sigma 2)
- mean z-score: -1.82
- z-score, replicate A: -1.49
- z-score, replicate B: -2.27
- z-score, replicate C: -1.71
- call: inactive

NDRG3 (NDRG family member 3)
- mean z-score: -0.3
- z-score, replicate A: -0.74
- z-score, replicate B: 0.1
- z-score, replicate C: -0.27
- call: inactive

LOC389087 (retired record)
- mean z-score: -1.13
- z-score, replicate A: -0.83
- z-score, replicate B: -1.47
- z-score, replicate C: -1.1
- call: inactive

TBX2 (T-box transcription factor 2)
- mean z-score: -0.91
- z-score, replicate A: -1.06
- z-score, replicate B: -0.9
- z-score, replicate C: -0.78
- call: inactive

The list goes on (2 carried over from the part before).
LOC389087 (retired record)
- mean z-score: -1.13
- z-score, replicate A: -0.83
- z-score, replicate B: -1.47
- z-score, replicate C: -1.1
- call: inactive

TBX2 (T-box transcription factor 2)
- mean z-score: -0.91
- z-score, replicate A: -1.06
- z-score, replicate B: -0.9
- z-score, replicate C: -0.78
- call: inactive

ABHD12 (abhydrolase domain containing 12, lysophospholipase)
- mean z-score: -0.78
- z-score, replicate A: -0.78
- z-score, replicate B: -0.74
- z-score, replicate C: -0.81
- call: inactive

WAPL (WAPL cohesin release factor)
- mean z-score: -0.21
- z-score, replicate A: -0.21
- z-score, replicate B: -0.25
- z-score, replicate C: -0.17
- call: inactive

SUN5 (Sad1 and UNC84 domain containing 5)
- mean z-score: 0.72
- z-score, replicate A: 0.57
- z-score, replicate B: 0.84
- z-score, replicate C: 0.76
- call: inactive

MOB3B (MOB kinase activator 3B)
- mean z-score: 0.09
- z-score, replicate A: -0.17
- z-score, replicate B: 0.45
- z-score, replicate C: -0.01
- call: inactive

MYNN (myoneurin)
- mean z-score: -0.31
- z-score, replicate A: -0.69
- z-score, replicate B: -0.34
- z-score, replicate C: 0.1
- call: inactive

MMP21 (matrix metallopeptidase 21)
- mean z-score: 1.31
- z-score, replicate A: 1.54
- z-score, replicate B: 1.01
- z-score, replicate C: 1.37
- call: inactive

C19orf47 (chromosome 19 open reading frame 47)
- mean z-score: 0.49
- z-score, replicate A: 0.85
- z-score, replicate B: 0.26
- z-score, replicate C: 0.37
- call: inactive

LRP12 (LDL receptor related protein 12)
- mean z-score: 1.7
- z-score, replicate A: 1.82
- z-score, replicate B: 1.67
- z-score, replicate C: 1.6
- call: inactive

RPS6KA3 (ribosomal protein S6 kinase A3)
- mean z-score: -0.29
- z-score, replicate A: -0.09
- z-score, replicate B: -0.3
- z-score, replicate C: -0.47
- call: inactive

RAD21 (RAD21 cohesin complex component)
- mean z-score: -0.57
- z-score, replicate A: -0.64
- z-score, replicate B: -0.53
- z-score, replicate C: -0.54
- call: inactive

TRIM23 (tripartite motif containing 23)
- mean z-score: 0.45
- z-score, replicate A: 0.7
- z-score, replicate B: 0.25
- z-score, replicate C: 0.39
- call: inactive

LOC105377782
- mean z-score: 0.25
- z-score, replicate A: 0.48
- z-score, replicate B: 0.43
- z-score, replicate C: -0.17
- call: inactive

CIRSR (corepressor of RBPJ and splicing regulator)
- mean z-score: -0.18
- z-score, replicate A: -0.32
- z-score, replicate B: -0.26
- z-score, replicate C: 0.04
- call: inactive

LOC400729 (retired record)
- mean z-score: -0.15
- z-score, replicate A: -0.2
- z-score, replicate B: -0.33
- z-score, replicate C: 0.06
- call: inactive
